The results in this text go back to patent US20090005313A1.

For the test, the target named is HV62, synthetic peptide corresponding to residues 33 to 94 of human VAMP-2 (human) (UniProt P63027). The test can be described thus: cell-based or functional assay.

“Un-nicked SC TeNT E234A (protease-deficient mutant)” yielded an Initial rate of cleavage of HV62 (nmol. min^-1 mg^-1) of less than 0.01.
